In this test the target is RBD-mimic2 peptide (SARS-CoV-2 spike RBD) (Severe acute respiratory syndrome coronavirus 2). Kind of test: SPR.

pKd: −log10 of the molar value.

As to ACE2 (from UniProt Q9BYF1), the pKd (in general, the Kd on a negative log10 scale, so that one unit is a factor of ten) is 6.46.

Source of the values: PMC8092326.
